Results of unrelated studies side by side (data: NIAID ChemDB).

All rows: target-level tests; agent: Hepatitis C virus; target: NS3/NS4A protease

Two numbers with a dash give a range or band. Rows are shuffled and stem from different studies. ICn: concentration for n% inhibition. Inhibition is in % at the dose shown (toxicity tests: loss of growth or viability). An empty or dashed field is not shown.

| compound | strain | dose | measure | method | value |
|---|---|---|---|---|---|
| C=CC1CC1(NC(=O)[C@@H]1C[C@@H](OC(=O)Nc2c(C)cccc2C)CN1C(=O)[C@@H](NC(=O)OC(C)(C)C)C(C)(C)C)C(=O)NS(=O)(=O)C1CC1 | BMS/H77C/J416S | - | IC50 | - | 1–10 µM |
| C=C[C@@H]1C[C@]1(NC(=O)[C@@H]1C[C@@H](Oc2cc(-c3ccccc3)nc3cc(OC)ccc23)CN1C(=O)[C@@H](NC(=O)OC(C)(C)C)C(C)(C)C)C(=O)NS(=O)(=O)c1ccc(OC)cc1 | BMS | - | IC50 | - | <0.05 µM |
| COc1ccc(NC(=O)c2c(O)cc(O)c([N+](=O)[O-])c2O)cc1OC | - | - | IC50 | HPLC | 52.2 µg/mL |
| C=CC1CC1(NC(=O)[C@@H]1C[C@@H](OC(=O)Nc2ccc(OC)cc2[N+](=O)[O-])CN1C(=O)[C@@H](NC(=O)OC(C)(C)C)C(C)(C)C)C(=O)NS(=O)(=O)C1CC1 | BMS/H77C/J416S | - | IC50 | - | <0.1 µM |
| C=C[C@@H]1C[C@]1(NC(=O)[C@@H]1C[C@@H](Oc2cc(-c3ccccc3)nc3cc(OC)ccc23)CN1C(=O)[C@@H](NC(=O)OC(C)(C)C)C1CCCC1)C(=O)NS(=O)(=O)C(C)C | BMS | - | IC50 | - | <0.05 µM |
| Cc1ccccc1NC(=O)c1c(O)cc(O)c([N+](=O)[O-])c1O | - | - | IC50 | HPLC | 47.3 µg/mL |
| C=CC1CC1(NC(=O)[C@@H]1C[C@@H](Oc2cc(-c3ccccc3)nc3cc(OC)ccc23)CN1C(=O)[C@@H](NC(=O)OC(C)(C)C)C(C)(C)C)C(=O)NS(=O)(=O)C1(C(=O)c2ccccc2)CC1 | BMS | - | IC50 | - | 0.05–0.5 µM |
| O=C(Nc1cccc(Cl)c1Cl)c1c(O)cc(O)c([N+](=O)[O-])c1O | - | 100 µg/mL | inhibition | HPLC | 96.1% |
| C=CC1CC1(NC(=O)[C@@H]1C[C@@H](OC(=O)Nc2ccccc2C(=O)O)CN1C(=O)[C@@H](NC(=O)OC(C)(C)C)C(C)(C)C)C(=O)NS(=O)(=O)C1CC1 | BMS/H77C/J416S | - | IC50 | - | 0.1–1 µM |
| C=C1C[C@]1(NC(=O)[C@@H]1C[C@@H](Oc2cc(-c3ccccc3)nc3cc(OC)ccc23)CN1C(=O)[C@@H](NC(=O)OC(C)(C)C)C(C)(C)C)C(=O)NS(=O)(=O)c1ccccc1F | BMS | - | IC50 | - | <0.05 µM |
| C=CC1CC1(NC(=O)[C@@H]1C[C@@H](OC(=O)N(CCCC)CCCC)CN1C(=O)[C@@H](NC(=O)OC(C)(C)C)C(C)(C)C)C(=O)NS(=O)(=O)C1CC1 | BMS/H77C/J416S | - | IC50 | - | 0.1–1 µM |
| CC[C@@H](C=O)NC(=O)[C@@H]1C[C@@H](OCc2ccccc2)CN1C(=O)[C@H](NC(=O)[C@H](NC(=O)c1cnccn1)C(C)C)C(C)C | - | - | Ki | - | 12 µM |
| C=CC1CC1(NC(=O)[C@@H]1C[C@@H](OC(=O)Nc2sccc2C(=O)OC)CN1C(=O)[C@@H](NC(=O)OC(C)(C)C)C(C)(C)C)C(=O)NS(=O)(=O)C1CC1 | BMS/H77C/J416S | - | IC50 | - | <0.1 µM |
| C#CCC[C@H](NC(=O)[C@@H]1[C@@H]2[C@H](CN1C(=O)[C@@H](NC(=O)[C@@H](NC(=O)c1cnccn1)C1(C)CCCCC1)C1(C)CCCCC1)C2(C)C)C(=O)C(=O)NCC=C | - | - | Ki | - | 0.005 µM |
| C=C[C@H]1C[C@@]1(NC(=O)[C@@H]1C[C@@H](Oc2cc(-c3ccccc3)nc3cc(OC)ccc23)CN1C(=O)[C@@H](NC(=O)OCC1CC1)C(C)(C)C)C(=O)NS(=O)(=O)C1(Cc2ccccc2)CC1 | BMS | - | IC50 | - | <0.05 µM |
| C=C[C@@H]1C[C@]1(NC(=O)[C@@H]1C[C@@H](Oc2cc(-c3ccccc3)nc3cc(OC)ccc23)CN1C(=O)[C@@H](NC(=O)OCO)C(C)(C)C)C(=O)NS(=O)(=O)C1CC1 | BMS | - | IC50 | - | <0.05 µM |
| C=CC1CC1(NC(=O)[C@@H]1C[C@@H](OC(=O)Nc2ccccc2C(=O)OCCCC)CN1C(=O)[C@@H](NC(=O)OC(C)(C)C)C(C)(C)C)C(=O)NS(=O)(=O)C1CC1 | BMS/H77C/J416S | - | IC50 | - | <0.1 µM |
| C=C[C@H]1C[C@@]1(NC(=O)[C@@H]1C[C@@H](Oc2cc(-c3ccccc3)nc3cc(OC)ccc23)CN1C(=O)[C@@H](NC(=O)OC(C)(C)C)C(C)(C)C)C(=O)NS(=O)(=O)C1(COC(C)C)CC1 | BMS | - | IC50 | - | <0.05 µM |
| C=C[C@@H]1C[C@]1(NC(=O)[C@@H]1C[C@@H](Oc2cc(-c3ccccc3)nc3cc(OC)ccc23)CN1C(=O)[C@@H](NC(=O)OC(C)(C)C)C(C)(C)C)C(=O)NS(=O)(=O)c1ccc(C(C)(C)C)cc1 | BMS | - | IC50 | - | <0.5 µM |
| O=C(Nc1ccc(Oc2ccccc2)cc1)c1c(O)cc(O)c([N+](=O)[O-])c1O | - | - | IC50 | HPLC | 8.5 µg/mL |
| C=CC1CC1(NC(=O)[C@@H]1C[C@@H](OC(=O)Nc2c(CC)cccc2CC)CN1C(=O)[C@@H](NC(=O)OC(C)(C)C)C(C)(C)C)C(=O)NS(=O)(=O)C1CC1 | BMS/H77C/J416S | - | IC50 | - | 1–10 µM |
| C=CC1CC1(NC(=O)[C@@H]1C[C@@H](Oc2cc(-c3ccccc3)nc3cc(OC)ccc23)CN1C(=O)[C@@H](NC(=O)OC(C)(C)C)C(C)(C)C)C(=O)NS(=O)(=O)c1ccc([N+](=O)[O-])cc1 | BMS | - | IC50 | - | <0.5 µM |
| C=C[C@H]1C[C@@]1(NC(=O)[C@@H]1C[C@@H](Oc2cc(-c3ccccc3)nc3cc(OC)ccc23)CN1C(=O)[C@@H](NC(=O)OC(C)(C)C)C(C)(C)C)C(=O)NS(=O)(=O)C1([Si](C)(C)C)CC1 | BMS | - | IC50 | - | 0.05–0.5 µM |
| C=CCN(CC=C)C(=O)O[C@@H]1C[C@@H](C(=O)NC2(C(=O)NS(=O)(=O)C3CC3)CC2C=C)N(C(=O)[C@@H](NC(=O)OC(C)(C)C)C(C)(C)C)C1 | BMS/H77C/J416S | - | IC50 | - | 0.1–1 µM |
| C=CC1C[C@@]1(NC(=O)[C@@H]1C[C@@H](Oc2cc(-c3ccccc3)nc3cc(OC)ccc23)CN1C(=O)[C@@H](NC(=O)[C@@H](OC)c1ccccc1)C(C)(C)C)C(=O)NS(=O)(=O)C1(CC2CC2)CC1 | BMS | - | IC50 | - | <0.05 µM |
| C=C[C@@H]1C[C@]1(NC(=O)[C@@H]1C[C@@H](Oc2cc(-c3ccccc3)nc3cc(OC)ccc23)CN1C(=O)[C@@H](NC(=O)CCl)C(C)(C)C)C(=O)NS(=O)(=O)C1CC1 | BMS | - | IC50 | - | <0.05 µM |

The first 3 rows once more:

C=CC1CC1(NC(=O)[C@@H]1C[C@@H](OC(=O)Nc2c(C)cccc2C)CN1C(=O)[C@@H](NC(=O)OC(C)(C)C)C(C)(C)C)C(=O)NS(=O)(=O)C1CC1 ; strain: BMS/H77C/J416S ; measure: IC50 ; value: 1–10 µM
C=C[C@@H]1C[C@]1(NC(=O)[C@@H]1C[C@@H](Oc2cc(-c3ccccc3)nc3cc(OC)ccc23)CN1C(=O)[C@@H](NC(=O)OC(C)(C)C)C(C)(C)C)C(=O)NS(=O)(=O)c1ccc(OC)cc1 ; strain: BMS ; measure: IC50 ; value: <0.05 µM
COc1ccc(NC(=O)c2c(O)cc(O)c([N+](=O)[O-])c2O)cc1OC ; measure: IC50 ; method: HPLC ; value: 52.2 µg/mL